Measured values from several laboratories, pooled; numbers as filed in NIAID ChemDB.

All rows: whole-cell or culture tests; agent: HIV-1; read-out: fold resistance

Conditions beyond the fields shown may differ between rows. Fold resistance: result on the changed form divided by that on wild type.

{"smiles": "CC(C)(CCCNS(C)(=O)=O)CN(C[C@@H](O)[C@H](Cc1ccccc1)NC(=O)O[C@H]1CO[C@H]2OCC[C@H]21)S(=O)(=O)c1ccc2c(c1)OCO2", "strain or isolate": "Multi-PI-resistant EP13", "cells": "MT-4", "changes": "PR-M46I L63P A71V V82F/L I84V", "method": "cytopathic effect / propidium iodide", "value": "1.42"}
{"smiles": "CC(C)=CCOc1cc(NC(=S)c2ccoc2C)ccc1Cl", "strain or isolate": "UC781-resistant (RT K103N Y181C) A17", "cells": "MT-2", "changes": "RT-K103N Y181C", "method": "p24", "value": ">1040"}
{"smiles": "Nc1ccn([C@H]2CC[C@@H](CO)O2)c(=O)n1", "strain or isolate": "HXB2-D50(RT-I50T)", "cells": "MT-4", "changes": "RT-I50T", "method": "p24", "value": "1.07"}
{"smiles": "COC(=O)N[C@H](C(=O)N[C@@H](Cc1ccccc1)[C@@H](O)CN(Cc1ccc(-c2ccccn2)cc1)NC(=O)[C@@H](NC(=O)OC)C(C)(C)C)C(C)(C)C", "strain or isolate": "NL4-3", "cells": "MT-4", "changes": "L23I E34Q K43I M46I I50L G51A L63P A71V V82A T91A ATV resistant", "value": ">250"}
{"smiles": "CCc1cc(CCc2nc3c(Cl)ccc(Cl)c3o2)c(=O)[nH]c1C", "strain or isolate": "A17", "cells": "H9", "changes": "RT-K103N Y181C", "method": "p24", "value": "60"}
{"smiles": "CC(C)=CCN1Cc2cccc3[nH]c(=S)n(c23)C[C@@H]1C", "strain or isolate": "1506-RS (RT-Y188L)", "cells": "MT-4", "changes": "RT-Y188L", "method": "cytopathic effect / MTT", "value": ">556"}
{"smiles": "Nc1nc(NC2CC2)c2ncn([C@H]3C=C[C@@H](CO)C3)c2n1", "strain or isolate": "52534-2 NRTI resistant recombinant", "cells": "PBMC", "changes": "RT-M41L T69ins L74V M184V L210W T215Y", "method": "RT activity", "value": "22"}
{"smiles": "Fc1cccc(F)c1C1SCc2nc3ccccc3n21", "strain or isolate": "UC781-R (RT-Y181C)", "cells": "CEM + CEM-SS", "changes": "RT-Y181C", "method": "cytopathic effect / XTT", "value": ">20.3"}
{"smiles": "Cc1cn([C@H]2C[C@H](N=[N+]=[N-])[C@@H](CO)O2)c(=O)[nH]c1=O", "strain or isolate": "Recombinant", "cells": "PBMC", "changes": "RT-F116Y", "method": "p24", "value": "0"}
{"smiles": "COC(=O)N[C@H](C(=O)N[C@@H](Cc1ccccc1)[C@@H](O)CN(Cc1ccc(-c2ccccn2)cc1)NC(=O)[C@@H](NC(=O)OC)C(C)(C)C)C(C)(C)C", "strain or isolate": "NL4-3", "cells": "MT-2", "changes": "PR-L10I G48V L90M", "value": "1.27"}
{"smiles": "Cc1cc(S(N)(=O)=O)ccc1NC(=O)COc1ccc(Cl)cc1C(=O)c1cc(Cl)cc(C#N)c1", "strain or isolate": "NNRTI-resistant (RT G190E)", "cells": "MAGI", "changes": "RT-G190E", "method": "β-galactosidase", "value": "1.35"}
{"smiles": "COC(=O)NCCCC(C)(C)CN(C[C@@H](O)[C@H](Cc1ccccc1)NC(=O)O[C@H]1CO[C@H]2OCC[C@H]21)S(=O)(=O)c1ccc2c(c1)OCO2", "strain or isolate": "Multi-PI-resistant EP13", "cells": "MT-4", "changes": "PR-M46I L63P A71V V82F/L I84V", "method": "cytopathic effect / propidium iodide", "value": "8.1"}
{"smiles": "COc1c(O)c(I)c2c(c1OC)-c1c(c(I)c(O)c(OC)c1OC)C[C@H](C)[C@H](C)C2", "strain or isolate": "A17", "cells": "MT-4", "changes": "RT-K103N Y181C", "method": "cytopathic effect / MTT", "value": "33.5"}
{"smiles": "Clc1nc(Cl)c2[nH]cnc2n1", "strain or isolate": "SW3-10125R", "cells": "MT-4", "changes": "RT M41L A62V T69SSS insertion V75V/A M184I L210W T215Y", "method": "cytopathic effect / MTT", "value": "6"}
{"smiles": "CC(C)(C)OC(=O)N[C@@H](Cc1ccccc1)[C@H](O)CNC[C@@H](O)[C@H](Cc1ccc(OCC(=O)N2CCOCC2)cc1)NC(=O)OC(C)(C)C", "strain or isolate": "NL4-3", "cells": "MT-2", "changes": "PR-A71T V82A", "method": "p24", "value": "8"}
{"smiles": "N#CCN1C(=O)N(Cc2ccccc2)S(=O)(=O)c2cscc21", "strain or isolate": "IIIB", "cells": "CEM", "changes": "RT-Y181C", "method": "syncytia", "value": ">250"}
{"smiles": "Cc1c(Sc2ccccc2)n(COCCO)c(=O)[nH]c1=O", "strain or isolate": "IIIB NEV(RT-V106A)", "cells": "CEM", "changes": "RT-V106A", "method": "syncytia", "value": "12"}
{"smiles": "Fc1cccc(F)c1C1SCc2nc3ccccc3n21", "strain or isolate": "IIIB", "changes": "RT-Y181C", "method": "cytopathic effect / MTT", "value": "9.9"}
{"smiles": "C[C@H](Cn1cnc2c(N)ncnc21)OCP(=O)(O)O", "strain or isolate": "HHA-500SN (GP120-T90I T188N T236A N289K T297I S334N T341I N386D)", "cells": "CEM", "changes": "gp120 T90I T188N T236A N289K T297I S334N T341I N386D", "method": "syncytia", "value": "4.1"}
{"smiles": "Fc1cccc(F)c1C1OCc2nc3ccccc3n21", "strain or isolate": "TIBO R82150-resistant (RT L100I)", "cells": "CEM", "changes": "RT-L100I", "method": "cytopathic effect / MTT", "value": "1.73"}
{"smiles": "C=C(C)OC(=O)N1c2cc(Cl)ccc2NC(=S)C1(C)C", "strain or isolate": "NEV(RT-V106A)", "cells": "CEM", "changes": "RT-V106A", "method": "syncytia", "value": "11.4"}
{"smiles": "O=C(N[C@H]1c2ccccc2OC[C@H]1O)[C@H](Cc1cc2ccncc2o1)C[C@H](O)CN1CCN(Cc2ccc(-c3ccc(Cl)cc3)o2)C[C@H]1C(=O)NCC(F)(F)F", "strain or isolate": "4X (PR M46I L63P V82T I84V)", "cells": "MT-4", "changes": "PR-M46I L63P V82T I84V", "method": "p24", "value": ">4"}
{"smiles": "CC(C)(CCCN)CN(C[C@@H](O)[C@H](Cc1ccccc1)NC(=O)O[C@H]1CO[C@H]2OCC[C@H]21)S(=O)(=O)c1ccc2c(c1)OCO2", "strain or isolate": "Multi-PI-resistant EP13", "cells": "MT-4", "changes": "PR-M46I L63P A71V V82F/L I84V", "method": "cytopathic effect / propidium iodide", "value": "1.46"}
{"smiles": "CCN1C(=O)N(Cc2ccccc2)S(=O)(=O)c2cscc21", "strain or isolate": "IIIB", "cells": "CEM", "changes": "RT-Y181C", "method": "syncytia", "value": ">207"}
{"smiles": "CC(C)CN(C[C@@H](O)[C@H](Cc1ccccc1)NC(=O)O[C@H]1CO[C@H]2OCC(F)(F)[C@H]21)S(=O)(=O)c1ccc(N)cc1", "strain or isolate": "NL4-3", "cells": "MT-4", "changes": "L10F V32I M46I I45M A71V I84V APV resistant", "value": "187"}
{"smiles": "S=C(NCCCn1ccnc1)Nc1nccs1", "strain or isolate": "A17", "cells": "PBMC", "changes": "RT-K103N Y181C", "method": "p24", "value": ">100000"}
{"smiles": "C#CCN1C(=O)N(Cc2ccccc2)S(=O)(=O)c2cscc21", "strain or isolate": "IIIB", "cells": "CEM", "changes": "RT-K103N", "method": "syncytia", "value": ">11.8"}
{"smiles": "Cc1occc1C(=S)Nc1ccc(Cl)c(/C=N/OC(C)(C)C)c1", "strain or isolate": "Thiazolobenzimidazole-resistant (RT V108I)", "cells": "CEM + CEM-SS", "changes": "RT-V108I", "method": "cytopathic effect / XTT", "value": "6"}
{"smiles": "CCOCn1c(Sc2ccccc2)c(CC)c(=O)[nH]c1=S", "strain or isolate": "IIIB TIBO R82913-resistant (RT K103N)", "cells": "CEM", "changes": "RT-K103N", "method": "syncytia", "value": "192.5"}
{"smiles": "COC(=O)NCCCCCC(C)(C)CN(C[C@@H](O)[C@H](Cc1ccccc1)NC(=O)O[C@H]1CO[C@H]2OCC[C@H]21)S(=O)(=O)c1ccc2c(c1)OCO2", "strain or isolate": "Multi-PI-resistant EP13", "cells": "MT-4", "changes": "PR-M46I L63P A71V V82F/L I84V", "method": "cytopathic effect / propidium iodide", "value": "8.36"}
{"smiles": "O=c1[nH]cnc2c1ncn2[C@H]1CC[C@@H](CO)O1", "strain or isolate": "Recombinant", "cells": "HeLa", "changes": "RT-M184V", "method": "luciferase", "value": "2.4"}
{"smiles": "C/C=C/CSc1cc(NC(=S)c2ccsc2C)ccc1Cl", "strain or isolate": "NL4-3 (RT A98G)", "cells": "CEM + CEM-SS", "changes": "RT-A98G", "method": "cytopathic effect / XTT", "value": "2"}
{"smiles": "O=c1[nH]cnc2c1ncn2[C@H]1CC[C@@H](CO)O1", "strain or isolate": "56252-1 NRTI resistant recombinant", "cells": "PBMC", "changes": "RT-T69K K70G V75I F77L F116Y Q151M M184V", "method": "RT activity", "value": "28"}
{"smiles": "CN1C(=O)N(Cc2ccccc2)S(=O)(=O)c2cscc21", "strain or isolate": "IIIB", "cells": "CEM", "changes": "RT-L100I", "method": "syncytia", "value": "5.61"}
{"smiles": "CCNc1cccnc1N1CCN(C(=O)c2cc3cc(OC)ccc3[nH]2)CC1", "strain or isolate": "IIIB HEPT-resistant (RT Y188H)", "cells": "CEM", "changes": "RT-Y188H", "method": "syncytia", "value": "17.5"}
{"smiles": "Cc1cn([C@H]2C[C@H](N=[N+]=[N-])[C@@H](CO)O2)c(=O)[nH]c1=O", "strain or isolate": "7295-1 NRTI resistant recombinant", "cells": "PBMC", "changes": "RT-D67N T69N K70R M184V T215F K219Q", "method": "RT activity", "value": "9.9"}
{"smiles": "CCOCn1c(Sc2ccccc2)c(CC)c(=O)[nH]c1=O", "strain or isolate": "IIIB E-EBU(RT-Y181C)", "cells": "CEM", "changes": "RT-Y181C", "method": "syncytia", "value": "≥4000"}
{"smiles": "CC(C)CN(C[C@@H](O)[C@H](Cc1ccccc1)NC(=O)O[C@H]1CCOC1)S(=O)(=O)c1ccc(N)cc1", "strain or isolate": "NL4-3", "cells": "MT-4", "changes": "M46I I50V N38K M36I GRL05010-resistant", "value": ">13"}
{"smiles": "COC(=O)NCCCC(C)(C)CN(C[C@@H](O)[C@H](Cc1ccccc1)NC(=O)O[C@H]1CO[C@H]2OCC[C@H]21)S(=O)(=O)c1cccc(N)c1", "strain or isolate": "Multi-PI-resistant EP13", "cells": "MT-4", "changes": "PR-M46I L63P A71V V82F/L I84V", "method": "cytopathic effect / propidium iodide", "value": "2"}
{"smiles": "Cn1c2ccccc2c2c1cc(C#N)c(=O)n2-c1ccc([N+](=O)[O-])cc1", "strain or isolate": "NNRTI-resistant", "cells": "HeLa", "changes": "RT-K103N P225H", "method": "luciferase", "value": "0.2"}
{"smiles": "Fc1cccc(Cl)c1C1OCc2nc3ccccc3n21", "strain or isolate": "Nevirapine-resistant (RT V106A)", "cells": "CEM", "changes": "RT-V106A", "method": "cytopathic effect / MTT", "value": ">3.86"}
{"smiles": "CC(C)Nc1cccnc1N1CCN(C(=O)c2cc3ccccc3[nH]2)CC1", "strain or isolate": "NEV(RT-V106A)", "cells": "CEM", "changes": "RT-V106A", "method": "syncytia", "value": "22"}
{"smiles": "C[C@H](Cn1cnc2c(N)ncnc21)OCP(=O)(O)O", "strain or isolate": "Recombinant", "cells": "HeLa", "changes": "RT-A62T V118I M184V", "method": "luciferase", "value": "1.1"}
{"smiles": "O=C1N(Cc2ccccc2)c2cscc2S(=O)(=O)N1Cc1ccccc1", "strain or isolate": "IIIB", "cells": "CEM", "changes": "RT-K103N", "method": "syncytia", "value": ">5.56"}
{"smiles": "CCc1cc(CCc2nc3ccccc3o2)c(=O)[nH]c1C", "strain or isolate": "A17", "cells": "H9", "changes": "RT-K103N Y181C", "method": "p24", "value": "1000"}
{"smiles": "CC(C)OC(=O)OCOP(=O)(CO[C@H](C)Cn1cnc2c(N)ncnc21)OCOC(=O)OC(C)C", "strain or isolate": "56252-1 NRTI resistant recombinant", "cells": "PBMC", "changes": "RT-T69K K70G V75I F77L F116Y Q151M M184V", "method": "RT activity", "value": "11"}
{"smiles": "Cc1cn([C@@H]2O[C@H](CO[Si](C)(C)C(C)(C)C)C3(OS(=O)(=O)C=C3N)[C@H]2O[Si](C)(C)C(C)(C)C)c(=O)n(C)c1=O", "strain or isolate": "TIBO-2(RT-K103N)", "cells": "CEM", "changes": "RT-K103N", "method": "syncytia", "value": "5.75"}
{"smiles": "CCc1cc(NCc2nc3c(Cl)ccc(Cl)c3o2)c(=O)[nH]c1C", "strain or isolate": "IIIB PYR(RT-Y181C)", "cells": "CEM", "changes": "RT-Y181C", "method": "syncytia", "value": "≥714"}

Repeating the final 4 entries:

smiles | strain or isolate | cells | changes | method | value
CCc1cc(CCc2nc3ccccc3o2)c(=O)[nH]c1C | A17 | H9 | RT-K103N Y181C | p24 | 1000
CC(C)OC(=O)OCOP(=O)(CO[C@H](C)Cn1cnc2c(N)ncnc21)OCOC(=O)OC(C)C | 56252-1 NRTI resistant recombinant | PBMC | RT-T69K K70G V75I F77L F116Y Q151M M184V | RT activity | 11
Cc1cn([C@@H]2O[C@H](CO[Si](C)(C)C(C)(C)C)C3(OS(=O)(=O)C=C3N)[C@H]2O[Si](C)(C)C(C)(C)C)c(=O)n(C)c1=O | TIBO-2(RT-K103N) | CEM | RT-K103N | syncytia | 5.75
CCc1cc(NCc2nc3c(Cl)ccc(Cl)c3o2)c(=O)[nH]c1C | IIIB PYR(RT-Y181C) | CEM | RT-Y181C | syncytia | ≥714